Experimental data published in EP4014973B1, “INHALED LIQUID FOR THE TREATMENT OF RESPIRATORY INFECTIONS IN HUMANS CAUSED BY PATHOGENS RESISTANT TO ANTIBIOTICS” (Conick Biotech LLC, priority 2020, dated 2022).

Tested on: humans
Assay: Clinical pilot study of side effects after inhalation
Settings: 80 humans
[1] = inhalation, 10ml of the novel compound 2% / 30 kg body weight every 8 hours for seven (7) days

**Q.** Which irregularities at follow-up (after 10 working day from the end of the testing) does the source give for `C=CCc1ccc(O)c(OC)c1.CCN(CC)CC(=O)Nc1c(C)cccc1C` [Novel Compound, N-[N'-(carboxymethylenyl-2,6-dimethyl-aniline)-N,N-diethylammonium]-[2'-methoxy-4'-(2'-propenyl)]-phenolate.] here?
**A.** The irregularities at follow-up was “no irregularities were observed”.

**Q.** What about the symptoms of allergy [1] of the same compound?
**A.** Its symptoms of allergy is “no symptoms of allergy”.

**Q.** And the tolerance [1]?
**A.** Its tolerance is “showed tolerance”.
